Source: doi:10.1101/2025.11.04.686469, “Discovery of Host-Directed Small Molecules with Broad Anti-Leishmanial Efficacy” (bioRxiv, 2025)

The molecules below were run on intracellular L. donovani amastigotes (assay: Luminescent-based evaluation of intracellular anti-leishmanial activity in THP-1 macrophages). Conditions: 24h LC50 / Lum IC50 (Supplemental Table 2).
Type: cell-based, Leishmania donovani
Experimental: Luminescent strains, L. donovani LV82 expressing firefly luciferase (a kind gift from Dr. Abhay Satoskar, Ohio State University) and L. mexicana (NR-51210, ATCC) expressing renilla luciferase were used to evaluate the effect of the compounds in intracellular and extracellular conditions. Wild-type L. donovani LV82 (ATCC) were used for Giemsa staining based experiments. All parasites were cultured at 25°C and 5% CO2 in M199 media (Corning) supplemented with 10% FBS, 1% penicillin/streptomycin, and hemin (0.01 mg/mL), and used in experiments up to passage 15.
THP-1 cells were seeded in a 96 well plate (25,000 cells/well) overnight then differentiated with 150 nM phorbol 12-myristate 13-acetate (PMA) over 72 hours (Supplemental Figure 1). […] Briefly, promastigotes of a known cell density were resuspended in RPMI media (with 10% FBS, 1% P/S and 0.05 mM β-mercaptoethanol) and incubated with adhered THP-1 cells over 18 hours. After infection, cells were washed three times with fresh media to remove extracellular promastigotes.
Infected macrophages were then treated with compounds solubilized in DMSO ranging from 0.1-10 μM in concentrations. After 72 hours of treatment, the viability of the amastigotes within macrophages was determined using Promega firefly luminescence assay (Cat E1500) or Pierce Renilla luciferase assay (Cat 16166) for L. donovani and L. mexicana strains, respectively. Briefly, media was removed, and cells were lysed with the assay lysis buffer. The luciferase substrate was then incubated with the lysed cells for 10 min at room temperature and luminescence of live Leishmania was measured in a white opaque 96 well plate using a Biotek plate reader.

With `FC(F)(F)c1ccc(-c2ccc(-c3cc(C(F)(F)F)nn3-c3ccc(NC4CNC4)cc3)cc2)cc1` [Compound 3] as the molecule, how does the Selectivity read?
Its Selectivity is 6.1.

`CC(=O)c1ccc(-c2ccc(C(F)(F)F)cc2)cc1` [Compound 5] was tested. Which Selectivity did it give?
Its Selectivity is 5.8.

For `COc1ccc(CNC2CCN(c3ccc(-n4nc(C(F)(F)F)cc4-c4ccc(-c5ccc(C(F)(F)F)cc5)cc4)cc3)C2)cc1` (stereo not drawn) [Compound 14], which Selectivity is on record?
The Selectivity was less than 5.0.

How did the Selectivity turn out when `Oc1ccc(CNC2CCN(c3ccc(-n4nc(C(F)(F)F)cc4-c4ccc(-c5ccc(C(F)(F)F)cc5)cc4)cc3)C2)cc1` (stereo not drawn) [Compound 18] was run?
Its Selectivity is 6.1.

For `COc1ccc(-n2nc(C(F)(F)F)cc2-c2ccc(-c3ccc(C(F)(F)F)cc3)cc2)cc1` [Compound 26], which Selectivity is on record?
Its Selectivity is less than 0.6.

Which Selectivity does the source give for `O=[N+]([O-])c1ccc(-n2cc(C(F)(F)F)nc2-c2ccc(-c3ccccc3)cc2)cc1` [Compound 32] here?
Its Selectivity is less than 0.6.

With `Nc1ccc(-n2cc(C(F)(F)F)nc2-c2ccc(-c3ccccc3)cc2)cc1` [Compound 33] as the molecule, how does the Selectivity read?
The Selectivity was less than 0.2.

For `FC(F)(F)c1ccc(-c2ccc(-c3cc(C(F)(F)F)nn3-c3ccc(OC4CCNCC4)cc3)cc2)cc1` [Compound 34], which Selectivity is on record?
The Selectivity was greater than 8.3.

With `Cl.FC(F)(F)c1cc(-c2ccc(C#CC3CC3)cc2)n(-c2ccc(N3CCNCC3)cc2)n1` [Compound 42] as the molecule, how does the Selectivity read?
Its Selectivity is 0.2.

With `C#Cc1ccc(-c2cc(C(F)(F)F)nn2-c2ccc(N3CCNCC3)cc2)cc1.Cl` [Compound 43] as the molecule, how does the Selectivity read?
Its Selectivity is 0.1.

`CC(C)C#Cc1ccc(-c2cc(C(F)(F)F)nn2-c2ccc(N3CCNCC3)cc2)cc1.Cl` [Compound 45] was tested. Which Selectivity did it give?
The Selectivity was 0.9.

`Cl.FC(F)(F)c1cc(-c2ccc(-c3ccc(S(F)(F)(F)(F)F)cc3)cc2)n(-c2ccc(N3CCNCC3)cc2)n1` [Compound 46] was tested. Which Selectivity did it give?
Its Selectivity is less than 1.0.

For `FC(F)(F)c1cn(-c2ccc(N3CCNCC3)cc2)c(-c2ccc(Cl)cc2)n1` [Compound 51], which Selectivity is on record?
The Selectivity was 3.1.

With `CCCNC1CN(c2ccc(-n3nc(C(F)(F)F)cc3-c3ccc(-c4ccc(C(F)(F)F)cc4)cc3)cc2)C1` [Compound 54] as the molecule, how does the Selectivity read?
Its Selectivity is 4.1.

`FC(F)(F)c1ccc(-c2ccc(-c3cc(C(F)(F)F)nn3-c3ccc(N4CC(NC5CCCC5)C4)cc3)cc2)cc1` [Compound 55] was tested. Which Selectivity did it give?
Its Selectivity is 3.5.

With `FC(F)(F)c1ccc(-c2ccc(-c3cc(C(F)(F)F)nn3-c3ccc(NC4CCN(C5CCCCC5)C4)cc3)cc2)cc1` (stereo not drawn) [Compound 58] as the molecule, how does the Selectivity read?
The Selectivity was 1.2.

`NC(Cc1ccccc1)C(=O)N1CCC(Nc2ccc(-n3nc(C(F)(F)F)cc3-c3ccc(-c4ccc(C(F)(F)F)cc4)cc3)cc2)C1` (stereo not drawn) [Compound 61] was tested. Which Selectivity did it give?
Its Selectivity is 2.7.

Which Selectivity does the source give for `FC(F)(F)c1ccc(-c2ccc(-c3cc(C(F)(F)F)nn3-c3ccc(NC4CCNCC4)cc3)cc2)cc1` [Compound 65] here?
Its Selectivity is 1.7.

`FC(F)(F)c1ccc(-c2ccc(-c3cc(C(F)(F)F)nn3-c3ccc(NCCCCOc4ccccc4)cc3)cc2)cc1` [Compound 68] was tested. Which Selectivity did it give?
Its Selectivity is less than 3.5.

How did the Selectivity turn out when `FC(F)(F)c1ccc(-c2ccc(-c3cc(C(F)(F)F)nn3-c3ccc(N4CCC(NC5CCCCCC5)C4)cc3)cc2)cc1` (stereo not drawn) [Compound 69] was run?
The Selectivity was 2.3.

With `O=C(C1CCCCC1)N1CC(Nc2ccc(-n3nc(C(F)(F)F)cc3-c3ccc(-c4ccc(C(F)(F)F)cc4)cc3)cc2)C1` [Compound 71] as the molecule, how does the Selectivity read?
The Selectivity was less than 0.8.

How did the Selectivity turn out when `NC1CCN(c2ccc(-n3nc(C(F)(F)F)cc3-c3ccc(-c4ccc(C(F)(F)F)cc4)cc3)cc2)CC1` [Compound 73] was run?
Its Selectivity is 1.8.

`FC(F)(F)c1ccc(-c2ccc(-c3nc(C(F)(F)F)cn3-c3ccc(N4CCNCC4)cc3)cc2)cc1` [Compound 74] was tested. Which Selectivity did it give?
The Selectivity was 2.3.

Which Selectivity does the source give for `FC(F)(F)c1ccc(-c2ccc(-c3nc(C(F)(F)F)c[nH]3)cc2)cc1` [Compound 75] here?
Its Selectivity is less than 4.9.

`NCC(=O)Nc1ccc(-n2cc(C(F)(F)F)nc2-c2ccc(-c3ccc(C(F)(F)F)cc3)cc2)cc1` [Compound 79] was tested. Which Selectivity did it give?
The Selectivity was 0.9.

With `NC(Cc1ccccc1)C(=O)Nc1ccc(-n2cc(C(F)(F)F)nc2-c2ccc(-c3ccc(C(F)(F)F)cc3)cc2)cc1` (stereo not drawn) [Compound 80] as the molecule, how does the Selectivity read?
The Selectivity was 2.7.

With `NC1CCN(c2ccc(-n3ccnc3-c3ccc(-c4ccccc4)cc3)cc2)C1` (stereo not drawn) [Compound 83] as the molecule, how does the Selectivity read?
Its Selectivity is 3.5.

How did the Selectivity turn out when `FC(F)(F)c1cn(-c2ccc(N3CCC(NCc4ccccc4)C3)cc2)c(-c2ccc(-c3ccccc3)cc2)n1` (stereo not drawn) [Compound 84] was run?
The Selectivity was greater than 7.7.

For `FC(F)(F)c1cn(-c2ccc(NCc3ccccc3)cc2)c(-c2ccc(-c3ccccc3)cc2)n1` [Compound 87], which Selectivity is on record?
The Selectivity was greater than 7.4.

`FC(F)(F)c1ccc(-c2ccc(-c3cc(C(F)(F)F)nn3-c3ccc(N4CCC(NCc5ccccc5)CC4)cc3)cc2)cc1` [Compound 89] was tested. Which Selectivity did it give?
Its Selectivity is 2.0.

`C#CCCCC(=O)NC1CCN(c2ccc(-n3nc(C(F)(F)F)cc3-c3ccc(-c4ccc(C(F)(F)F)cc4)cc3)cc2)CC1` [Compound 92] was tested. Which Selectivity did it give?
Its Selectivity is less than 1.5.

`Cl.FC(F)(F)C#Cc1ccc(-c2cc(C(F)(F)F)nn2-c2ccc(N3CCNCC3)cc2)cc1` [Compound 93] was tested. Which Selectivity did it give?
Its Selectivity is less than 4.0.

Which Selectivity does the source give for `CC(C)C#Cc1ccc(-c2cc(C(F)(F)F)nn2-c2ccc([N+](=O)[O-])cc2)cc1` [Compound 94] here?
Its Selectivity is less than 2.9.

For `CC(C)C#Cc1ccc(-c2cc(C(F)(F)F)nn2-c2ccc(Br)cc2)cc1` [Compound 96], which Selectivity is on record?
Its Selectivity is less than 3.8.

With `CC(C)C#Cc1ccc(-c2cc(C(F)(F)F)nn2-c2ccc(N3CCC(N)C3)cc2)cc1` (stereo not drawn) [Compound 98] as the molecule, how does the Selectivity read?
Its Selectivity is less than 1.9.

Which Selectivity does the source give for `CC(C)C#Cc1ccc(-c2cc(C(F)(F)F)nn2-c2ccc(N3CCC(NCc4ccccc4)C3)cc2)cc1` (stereo not drawn) [Compound 99] here?
The Selectivity was less than 2.9.

With `NC1CCN(c2ccc(-n3nc(C(F)(F)F)cc3-c3ccc(-c4ccc(S(F)(F)(F)(F)F)cc4)cc3)cc2)C1` (stereo not drawn) [Compound 106] as the molecule, how does the Selectivity read?
The Selectivity was 0.7.

`NCC(=O)NC1CCN(c2ccc(-n3nc(C(F)(F)F)cc3-c3ccc(-c4ccc(C(F)(F)F)cc4)cc3)cc2)CC1` [Compound 111] was tested. Which Selectivity did it give?
Its Selectivity is 1.8.

`FC(F)(F)c1ccc(-c2ccc(-c3cc(C(F)(F)F)nn3-c3ccc(N4CC(NCc5ccccc5)C4)cc3)cc2)cc1` [Compound 112] was tested. Which Selectivity did it give?
Its Selectivity is less than 0.6.

With `FC(F)(F)c1ccc(-c2ccc(-c3cc(C(F)(F)F)nn3-c3ccc(NC4CN(Cc5ccccc5)C4)cc3)cc2)cc1` [Compound 113] as the molecule, how does the Selectivity read?
Its Selectivity is less than 1.9.

Which Selectivity does the source give for `FC(F)(F)c1ccc(-c2ccc(-c3cc(C(F)(F)F)nn3-c3ccc(NC4CCN(Cc5ccccc5)C4)cc3)cc2)cc1` (stereo not drawn) [Compound 114] here?
The Selectivity was less than 1.4.

How did the Selectivity turn out when `FC(F)(F)c1ccc(-c2ccc(-c3cc(C(F)(F)F)nn3-c3ccc(NC4CCN(Cc5ccccc5)CC4)cc3)cc2)cc1` [Compound 115] was run?
Its Selectivity is 1.8.

`FC(F)(F)c1cn(-c2ccc(NCC3CC3)cc2)c(-c2ccc(-c3ccccc3)cc2)n1` [Compound 116] was tested. Which Selectivity did it give?
The Selectivity was greater than 5.0.

For `O=C(CCCCBr)N1CCC(Nc2ccc(-n3nc(C(F)(F)F)cc3-c3ccc(-c4ccc(C(F)(F)F)cc4)cc3)cc2)CC1` [Compound 117], which Selectivity is on record?
The Selectivity was greater than 8.2.

`NCC(=O)N1CC(Nc2ccc(-n3nc(C(F)(F)F)cc3-c3ccc(-c4ccc(C(F)(F)F)cc4)cc3)cc2)C1` [Compound 118] was tested. Which Selectivity did it give?
Its Selectivity is 2.4.

`NCC(=O)NC1CCN(c2ccc(-n3nc(C(F)(F)F)cc3-c3ccc(-c4ccc(C(F)(F)F)cc4)cc3)cc2)C1` (stereo not drawn) [Compound 119] was tested. Which Selectivity did it give?
The Selectivity was less than 3.7.

`FC(F)(F)c1ccc(-c2cnnn2-c2ccc(Br)cc2)cc1` [Compound 131] was tested. Which Selectivity did it give?
Its Selectivity is less than 3.7.

With `Cl.NC1CCN(c2ccc(-n3nncc3-c3ccc(-c4ccc(C(F)(F)F)cc4)cc3)cc2)C1` (stereo not drawn) [Compound 137] as the molecule, how does the Selectivity read?
Its Selectivity is 1.7.

`Cl.NC1CCN(c2ccc(-n3nc(C(F)(F)F)c4ccc(-c5ccc(C(F)(F)F)cc5)cc43)cc2)C1` (stereo not drawn) [Compound 141] was tested. Which Selectivity did it give?
The Selectivity was 2.1.

With `FC(F)(F)c1ccc(-c2ccc(-c3cc(C(F)(F)F)nn3-c3ccc(OC4CCNC4)cc3)cc2)cc1` (stereo not drawn) [Compound 144] as the molecule, how does the Selectivity read?
Its Selectivity is less than 0.5.

`CC(C)(C)c1ccc(-c2nc(C(F)(F)F)cn2-c2ccc([N+](=O)[O-])cc2)cc1` [Compound 146] was tested. Which Selectivity did it give?
Its Selectivity is greater than 11.4.

For `CC(C)(C)c1ccc(-c2nc(C(F)(F)F)cn2-c2ccc(N)cc2)cc1` [Compound 149], which Selectivity is on record?
Its Selectivity is 3.2.

`CC(C)(C)OC(=O)NCC(=O)Nc1ccc(-n2cc(C(F)(F)F)nc2-c2ccc(C(C)(C)C)cc2)cc1` [Compound 151] was tested. Which Selectivity did it give?
The Selectivity was less than 3.2.

For `Nc1ccc(-c2cc(C(F)(F)F)nn2-c2ccc(-c3ccc(C(F)(F)F)cc3)cc2)cc1` [Compound 152], which Selectivity is on record?
Its Selectivity is less than 4.4.

For `O=[N+]([O-])c1ccc(-n2cc(C(F)(F)F)nc2-c2ccc(-c3ccc(C(F)(F)F)cc3)cc2)cc1` [Compound 154], which Selectivity is on record?
The Selectivity was 8.9.

How did the Selectivity turn out when `NCC(=O)Nc1ccc(-c2cc(C(F)(F)F)nn2-c2ccc(-c3ccc(C(F)(F)F)cc3)cc2)cc1` [Compound 155] was run?
The Selectivity was 1.5.

With `CC(C)(C)c1ccc(-c2nc(C(F)(F)F)cn2-c2ccc(NC(=O)CN)cc2)cc1` [Compound 157] as the molecule, how does the Selectivity read?
Its Selectivity is less than 2.8.

Which Selectivity does the source give for `NC1CCN(c2ccc(-n3nc(C(F)(F)F)cc3-c3ccncc3)cc2)C1` (stereo not drawn) [Compound 168] here?
The Selectivity was greater than 5.0.

How did the Selectivity turn out when `CS(=O)(=O)c1ccc(-n2nc(C(F)(F)F)cc2-c2ccc(-c3ccc(C(F)(F)F)cc3)cc2)cc1` [Compound 179] was run?
The Selectivity was less than 4.5.

For `O=C(NCc1cccc(F)c1)c1ccc(-n2cc(C(F)(F)F)nc2-c2ccc(-c3ccc(C(F)(F)F)cc3)cc2)c(F)c1` [Compound 181], which Selectivity is on record?
Its Selectivity is less than 2.9.
